Results taken from PMC8122397, “Synthesis of New Triazolopyrazine Antimalarial Compounds” (Molecules, 2021).

Legend:
[1] = test system: Plasmodium falciparum 3D7 (chloroquine-sensitive strain); test: In vitro anti-plasmodial image-based asexual assay, 3D7 strain; type: cell-based; conditions: SI = HEK293 IC50/parasite IC50
Method: (§1) The semisynthesized/functionalized triazolopyrazine compounds and the scaffold triazolopyrazine precursors, compounds 1–18, were tested for their antimalarial activity against the 3D7 (chloroquine-sensitive strain) and Dd2 (chloroquine, pyrimethamine, and mefloquine resistant strain) P. falciparum. Where an accurate IC50 value could not be determined due to 100% growth inhibition and a plateau not being reached, but where ≥90% growth inhibition was attained at the top screening concentration, an estimated IC50 value was calculated.
(§2) Plsamodium falciparum 3D7 and Dd2 parasites were cultured in RPMI1640 (Life Technologies, Camarillo, CA, USA) supplemented with 2.5 mg/mL Albumax II, 5% AB human serum, 25 mM HEPES, and 0.37mM hypoxanthine. Ring stage parasites were treated with compounds following two rounds of sorbitol synchronization, as previously described. Artesunate and pyrimethamine were incorporated as controls. Following incubation of assay plates for 72 h at 37 °C, and 5% CO2 and 5% O2, parasites were stained with 2-(4-amidinophenyl)-1H-indole-6-carboxamidine (DAPI) and imaged using an Opera QEHS confocal imaging system (PerkinElmer, Waltham, MA, USA). Images were analyzed, as previously described, using Acapella spot detection software (PerkinElmer, Waltham, MA, USA).
(§3) Normalizing of raw data used the in-plate positive (5 μM puromycin 100% inhibition) and negative (0.4% DMSO–no inhibition) controls to obtain percent inhibition and then used to calculate IC50 values through a 4 parameter logistic curve fitting in GraphPad Prism v.6.

[2] = test system: Plasmodium falciparum Dd2 (chloroquine, pyrimethamine, and mefloquine drug-resistant strain); test: In vitro anti-plasmodial image-based asexual assay, Dd2 strain; type: cell-based; conditions: SI = HEK293 IC50/parasite IC50
Method: as §1, §2, §3

SMILES	SI for 3D7 [1]	SI for Dd2 [2]
C[C@H]1[C@H](OC(=O)CCC(=O)O)O[C@@H]2O[C@@]3(C)CC[C@H]4[C@H](C)CC[C@@H]1[C@@]24OO3 [Artesunate, reference compound]	>2874	>5000
FC(F)Oc1ccc(-c2nnc3cncc(Cl)n23)cc1 [Compound 1]	>4	>3
COc1ccc(C[C@H](N)C(=O)N[C@H]2[C@@H](O)[C@H](n3cnc4c(N(C)C)ncnc43)O[C@@H]2CO)cc1 [Puromycin, reference compound]	12	11
FC1(F)CCC(c2ncc(Cl)n3c(-c4ccc(Cl)cc4)nnc23)CC1 [Compound 17, 5-Chloro-3-(4-chlorophenyl)-8-(4,4-difluorocyclohexyl)-[1,2,4]triazolo[4,3-a]pyrazine]	>3	
Cc1ncc(Cl)n2c(-c3ccc(OC(F)F)cc3)nnc12 [Compound 11, 5-Chloro-3-[(4-difluoromethoxy)phenyl]-8-methyl-[1,2,4]triazolo[4,3-α]pyrazine]	>6	>2
Cc1ncc(OCC(F)(F)F)n2c(-c3ccc(OC(F)F)cc3)nnc12 [Compound 12, 3-[4-(Difluoromethoxy)phenyl]-8-methyl-5-(2,2,2-trifluoroethoxy)-[1,2,4]triazolo[4,3-a]pyrazine]	>2	
CCc1nc(N)nc(N)c1-c1ccc(Cl)cc1 [Pyrimethamine, reference compound]	>331	
Clc1ccc(-c2nnc3cncc(Cl)n23)cc1 [Compound 7]	>6	>5
Cc1ncc(OCCc2ccccc2)n2c(-c3ccc(OC(F)F)cc3)nnc12 [Compound 13, 3-[4-(Difluoromethoxy)phenyl]-8-methyl-5-(2-phenylethoxy)-[1,2,4]triazolo[4,3-a]pyrazine]	>7	>9
Cc1ncc(Cl)n2c(-c3ccc(C#N)cc3)nnc12 [Compound 10, 4-(5-Chloro-8-methyl-1,2,4-triazolo[4,3-α]pyrazin-3-yl)benzonitrile]	>2	>2
N#Cc1ccc(-c2nnc3cncc(Cl)n23)cc1 [Compound 9]	>4	>3
FC(F)Oc1ccc(-c2nnc3cncc(OCCc4ccccc4)n23)cc1 [Compound 2, 3-[4-(Difluoromethoxy)phenyl]-5-(2-phenylethoxy)-[1,2,4]triazolo[4,3-α]pyrazine]	>258	>148
CC(F)(F)c1ncc(Cl)n2c(-c3ccc(Cl)cc3)nnc12 [Compound 15, 5-Chloro-3-(4-chlorophenyl)-8-(1,1-difluoroethyl)-[1,2,4]triazolo[4,3-a]pyrazine]	>46	>31
FC(F)(F)c1ncc(Cl)n2c(-c3ccc(Cl)cc3)nnc12 [Compound 14, 5-Chloro-3-(4-chlorophenyl)-8-(trifluoromethyl)-[1,2,4]triazolo[4,3-α]pyrazine]	>16	>12
Cc1ncc(Cl)n2c(-c3ccc(Cl)cc3)nnc12 [Compound 8, 5-Chloro-3-(4-chlorophenyl)-8-methyl-[1,2,4]triazolo[4,3-α]pyrazine]	>4	>2
FC(F)Oc1ccc(-c2nnc3cncc(OCC(F)(F)F)n23)cc1 [Compound 3, 3-[(4-Difluoromethoxy)phenyl]-5-(2,2,2,-trifluroethoxy)-[1,2,4]triazolo[4,3-α]pyrazine]	>4	>3
CC(F)(F)c1nccn2c(-c3ccc(Cl)cc3)nnc12 [Compound 16, 3-(4-Chlorophenyl)-8-(1,1-difluoroethyl)-[1,2,4]triazolo[4,3-a]pyrazine]	>12	>3
